Pooled drug test results. Numbers come from NIAID ChemDB, via PubChem.

Shared fields: growth or infection tests; agent: Candida albicans; endpoint: MIC50

An empty or dashed field is not shown. Neighbouring rows are from separate reports. MIC50, MIC90 and the like: level of inhibition, or share of isolates inhibited.

compound	read by	strain or isolate	value
CN(C/C=C/C#CC(C)(C)C)Cc1cccc2ccccc12	-	CI_4	4 µg/mL
CC(C)[C@]12CC(=O)[C@H](C)[C@H]1C2	broth dilution	ATCC 90028	8000 µg/mL
Clc1ccc(C(Cn2ccnc2)OCc2c(Cl)cccc2Cl)c(Cl)c1	-	106 isolates	1 µg/mL
COc1ccc(C=O)c(OC)c1OC	broth dilution	ATCC 90028	1000 µg/mL
COC(=O)/C=C1/NN=C(c2ccccn2)N(c2ccccn2)C1=O	agar diffusion	Clinical isolates (20 strains)	512 µg/mL
NC(=S)N/N=C/c1cnc[nH]1	broth dilution	ATCC 18804	>1480 µM
CC(C)C12CCC(C)(CC1)O2	broth dilution	ATCC 90028	>8000 µg/mL
Clc1ccc(CCC(Cn2ccnc2)Sc2c(Cl)cccc2Cl)cc1	-	106 isolates	1 µg/mL
C=CC(C)(O)CCC=C(C)C	broth dilution	ATCC 90028	8000 µg/mL
CC(=O)N1CCN(c2ccc(OC[C@H]3CO[C@](Cn4ccnc4)(c4ccc(Cl)cc4Cl)O3)cc2)CC1	broth dilution	9 clinical isolates	≤0.031 µg/mL
COc1cc(C[C@H](C)[C@H](C)Cc2ccc(O)c(O)c2)ccc1O	broth dilution	CCC 126-2000	31.25 µg/mL
Cn1c(=O)c2c(ncn2C)n(C)c1=O	broth dilution	ATCC 90028	4000 µg/mL
O=C(N/N=C\n1ccnc1)c1ccc(Cl)cc1	broth dilution	ATCC 18804	1010 µM
Oc1cc(Cl)ccc1Oc1ccc(Cl)cc1Cl	broth dilution	-	32 µg/mL
Nc1nc(=O)n([C@H]2CS[C@@H](CO)O2)cc1F	-	183 strains	0.5 µg/mL
CN(C/C=C/C#CC(C)(C)C)Cc1cccc2ccccc12	-	-	25 µg/mL
C1CCNCC1	broth dilution	ATCC 90028	250 µg/mL
Nc1[nH]c(=O)ncc1F	-	106 isolates	0.12 µg/mL
C=C(C)C1CCC(C)CC1O	broth dilution	ATCC 90028	>8000 µg/mL
CC(=O)N/N=C/c1cnc[nH]1	broth dilution	ATCC 18804	>1643 µM
CCC(C)n1ncn(-c2ccc(N3CCN(c4ccc(OC[C@H]5CO[C@](Cn6cncn6)(c6ccc(Cl)cc6Cl)O5)cc4)CC3)cc2)c1=O	-	85 strains (fluconazole-resistant)	1 µg/mL
C[C@H]1[C@H](O)[C@@H](C)/C=C/C=C/C=C/C=C/C=C/C=C/C=C/[C@H](O[C@@H]2O[C@H](C)[C@@H](O)[C@H](N)[C@@H]2O)C[C@@H]2O[C@](O)(C[C@@H](O)C[C@@H](O)CC[C@H](O)[C@@H](O)C[C@@H](O)CC(=O)O[C@H]1C)C[C@H](O)[C@H]2C(=O)O	turbidity	-	<0.2 µg/mL
C=C1CC[C@H]2C[C@@H]1C2(C)C	broth dilution	ATCC 90028	1000 µg/mL
Nc1nc(=O)n([C@H]2CS[C@@H](CO)O2)cc1F	-	4054 strains (fluconazole-susceptible)	0.5 µg/mL
CN(C/C=C/C#CC(C)(C)C)Cc1cccc2ccccc12	broth dilution	9 clinical isolates	4 µg/mL

3 of the rows above, restated:

compound,read by,strain or isolate,value
O=C(N/N=C\n1ccnc1)c1ccc(Cl)cc1,broth dilution,ATCC 18804,1010 µM
Clc1ccc(CCC(Cn2ccnc2)Sc2c(Cl)cccc2Cl)cc1,-,106 isolates,1 µg/mL
Oc1cc(Cl)ccc1Oc1ccc(Cl)cc1Cl,broth dilution,-,32 µg/mL